This passage reports IC50 results from patent US8895613B2 (priority 2013, dated 2014).

This assay has as its target neuraminidase of influenza virus B/Pert/211/2001 (197E) (Influenza B virus, UniProt Q3S340, D197E). It counts as biochemical. To be noted: read-out: IC50, nM (number of experiments).

Regarding `CCC(CC)O[C@@H]1C=C(C(=O)O)C[C@H](N)[C@H]1NC(C)=O` [A2, (3R,4R,5S)-5-amino-4-acetamido-3-(pentan-3-yloxy)cyclohex-1-enecarboxylic acid, reference compound], the IC50 came out at 230 nM.

A word on the IC50: it is the concentration that inhibits the measured activity by half.
